Compound potency records, mixed from different reports. Data source: NIAID ChemDB in PubChem.

Shared fields: growth or infection tests; agent: Candida albicans; read-out: MIC

Rows are shuffled and stem from different studies.

C=C1C[C@@H]2C[C@@H]3CCO[C@@H](O3)c3cccc(c3)/C=C/C[C@H]3O[C@@H](/C(C)=C/I)[C@H](C)[C@@H](OC(=O)/C=C\C[C@@H](C1)O2)[C@H]3C ; strain or isolate: 96-489 ; read by: broth dilution ; value: >64 µg/mL
CCC(C)CC(C)CCCCCCCCC(=O)N[C@H]1C[C@@H](O)[C@H](NCCN)NC(=O)[C@@H]2[C@@H](O)CCN2C(=O)[C@H]([C@H](O)CCN)NC(=O)[C@H]([C@H](O)[C@@H](O)c2ccc(O)cc2)NC(=O)[C@@H]2C[C@@H](O)CN2C(=O)[C@H]([C@@H](C)O)NC1=O ; strain or isolate: 3 isolates ; value: 0.27 µg/mL
O=C(O/N=C(\c1ccc(Cl)cc1)c1cc2ccccc2o1)c1ccccc1 ; value: 16 µg/mL
CCCCCCCCC(OC)C(=O)O ; strain or isolate: ATCC 14053 ; value: >870 µM
C=C(C(=O)O)c1ccccc1 ; strain or isolate: ATCC10259 ; value: 200 µg/mL
COc1ccc(/C(=N\O)c2cc3ccccc3o2)cc1 ; value: 2 µg/mL
N#CSc1ccc2nc(NC(=O)CN3C(=O)S/C(=C/c4ccccc4)C3=O)sc2c1 ; strain or isolate: MTCC 227 ; read by: broth dilution / visual reading ; value: 1000 µg/mL
Cc1ccc(N=Cc2c(-c3c(O)c4ccccc4n(C)c3=O)[nH][nH]c2=O)cc1 ; strain or isolate: ATCC 10231 ; value: 25 µg/mL
CCCCCCCCCC(=O)NC(CCCN)C(=O)NC(CCCN)C(=O)NC(CCCN)C(N)=O ; strain or isolate: ATCC 24433 ; read by: broth dilution ; value: 100 µg/mL
N=C(N)c1ccc(-c2nnc(-c3ccc(C(=N)N)cc3)o2)cc1 ; value: >60 µg/mL
C[C@@H](n1cnc2cc(Cl)ccc2c1=O)[C@](O)(Cn1cncn1)c1ccc(F)cc1F ; strain or isolate: 60 strains ; value: ≤0.03 µg/mL
CC(C)(C)C1CC=C(C(=O)O)CC1 ; strain or isolate: ATCC10259 ; value: 1000 µg/mL
Cc1cc(NC(=O)c2ccccc2NC(=O)COc2ccccc2)no1 ; strain or isolate: ATCC 10231 ; value: >100 µg/mL
CCCCOC[n+]1cccc(NCn2nnc3ccccc32)c1 ; strain or isolate: ATCC 10231 ; value: >1439 µM
O=C(/C=C/C=C/C=C/C=C/C=C/C=C/C=C/C(=O)NC1=C(O)CCC1=O)NC1=C(O)CCC1=O ; strain or isolate: YU-1200 ; value: >200 µg/mL
Cc1cc(NC(=O)c2cccc(NC(=O)COc3ccccc3C)c2)no1 ; strain or isolate: ATCC 10231 ; value: >100 µg/mL
Cn1c(=O)c(-c2[nH][nH]c(=O)c2N=Nc2ccc(N)cc2)c(O)c2ccccc21 ; strain or isolate: ATCC 10231 ; value: 50 µg/mL
CNC1(NC)C=CC(C2SCC(=O)N2c2ncc(-c3cc4ccccc4oc3=O)o2)=CC1 ; strain or isolate: ATCC 10231 ; read by: broth dilution ; value: 20 µg/mL
Cc1ccc(OCC(=O)Nc2ccccc2C(=O)Nc2cc(C)on2)cc1 ; strain or isolate: ATCC 10231 ; value: >100 µg/mL
COc1ccc(CCN(C)CCCC(C#N)(c2ccc(OC)c(OC)c2)C(C)C)cc1OC ; strain or isolate: 66 strains ; value: 334 µg/mL
Cn1c(=O)c(-c2[nH][nH]c(=O)c2N=Nc2ccccc2)c(O)c2ccccc21 ; strain or isolate: ATCC 10231 ; value: >100 µg/mL
CCCCCCCCCCCCCCCCCC(=O)NC(CCCN)C(=O)NC(CCCN)C(N)=O ; strain or isolate: ATCC 24433 ; read by: broth dilution ; value: 12.5 µg/mL
Cn1c(=O)c(-c2[nH][nH]c(=O)c2C=Nc2ccc(N)cc2)c(O)c2ccccc21 ; strain or isolate: ATCC 10231 ; value: 50 µg/mL
CCCOCn1c[n+](CNC(=O)c2cccnc2)c2ccccc21 ; strain or isolate: ATCC 10231 ; value: >1387 µM
Cn1c(=O)c(-c2[nH][nH]c(=O)c2C=Nc2ccc(Cl)cc2)c(O)c2ccccc21 ; strain or isolate: ATCC 10231 ; value: 25 µg/mL
COc1ccc(/C(=N\OCc2ccccc2)c2cc3ccccc3o2)cc1 ; value: 16 µg/mL
C=C1C[C@@H]2C[C@@H]3CCO[C@@H](O3)c3coc(n3)/C=C/C[C@H]3O[C@@H](/C(C)=C/c4coc(C[C@]5(OC)C[C@H](OC)C[C@H]([C@H](O)/C=C(C)/C=C/[C@@H](C/C=C/Cl)OC)O5)n4)[C@H](C)[C@@H](OC(=O)/C=C\C[C@@H](C1)O2)[C@H]3C ; strain or isolate: 96-489 ; read by: broth dilution ; value: >64 µg/mL
Clc1ccc(COC(Cn2ccnc2)c2ccc(Cl)cc2Cl)c(Cl)c1 ; strain or isolate: Y1-3 ; value: 4 µg/mL
CC(=O)O[C@H]1CC[C@@]2(C)C(=CCC3C4CCC(C(=O)/C=C/c5cc(F)cc(F)c5F)[C@@]4(C)CCC32)C1 ; strain or isolate: MTCC 183 ; read by: turbidity ; value: 350 µg/mL
O=C1CSC(c2ccco2)N1c1ncc(-c2cc3ccccc3oc2=O)o1 ; strain or isolate: ATCC 10231 ; read by: broth dilution ; value: 32 µg/mL
Cc1cc(NC(=O)c2cccc(NC(=O)COc3ccc(Cl)cc3)c2)no1 ; strain or isolate: ATCC 10231 ; value: >100 µg/mL
Cc1ccc(C2SCC(=O)N2c2ncc(-c3cc4ccccc4oc3=O)o2)cc1 ; strain or isolate: ATCC 10231 ; read by: broth dilution ; value: 25 µg/mL
COc1cc(/C=C2/SC(=O)N(CC(=O)Nc3nc4ccc(SC#N)cc4s3)C2=O)cc(OC)c1OC ; strain or isolate: MTCC 227 ; read by: broth dilution / visual reading ; value: 1000 µg/mL
N=C(N)c1ccc(-c2ccc(-c3ccc(C(=N)N)cc3)s2)cc1 ; value: 60 µg/mL
C[C@@H](n1cnc2c(Cl)cccc2c1=O)[C@](O)(Cn1cncn1)c1ccc(F)cc1F ; strain or isolate: 406 strains ; value: 0.07 µg/mL
Clc1ccc(CO/N=C(\c2ccc(Cl)cc2)c2cc3ccccc3o2)cc1 ; value: 8 µg/mL
C=C1C[C@@H]2C[C@@H]3CCO[C@@H](O3)c3cccc(c3)/C=C/C[C@H]3O[C@@H](/C(C)=C/I)[C@H](C)[C@@H](OC(=O)/C=C/C[C@@H](C1)O2)[C@H]3C ; strain or isolate: ATCC 14503 ; read by: broth dilution ; value: >64 µg/mL
CCCCCCCCCCCCCC(=O)NC(CCCN)C(=O)NC(CCCN)C(=O)NC(CCCN)C(=O)NC(CCCN)C(N)=O ; strain or isolate: ATCC 24433 ; read by: broth dilution ; value: 6.25 µg/mL
C[C@@H](n1cnc2cc(N3CCN(C)CC3)ccc2c1=O)[C@](O)(Cn1cncn1)c1ccc(F)cc1F ; strain or isolate: 406 strains ; value: 5 µg/mL
C=C1C[C@@H]2C[C@@H]3CCO[C@@H](O3)c3cccc(c3)/C=C\C[C@H]3O[C@@H](/C(C)=C/I)[C@H](C)[C@@H](OC(=O)/C=C/C[C@@H](C1)O2)[C@H]3C ; strain or isolate: UCD-FR1 ; read by: broth dilution ; value: >64 µg/mL
Cc1cc(NC(=O)c2ccccc2NC(=O)COc2cccc(Cl)c2Cl)no1 ; strain or isolate: ATCC 10231 ; value: >100 µg/mL
CCCCCOCn1c[n+](CNC(=O)c2cccnc2)c2ccccc21 ; strain or isolate: ATCC 10231 ; value: 1287 µM
Cc1ccc(/C=C2/SC(=O)N(CC(=O)Nc3nc4ccc(SC#N)cc4s3)C2=O)cc1 ; strain or isolate: MTCC 227 ; read by: broth dilution / visual reading ; value: 250 µg/mL
CC(C)(C)c1ccc(CN(Cc2cccs2)n2ccnc2)cc1 ; value: 67 µM
CCOCn1c[n+](CNC(=O)c2cccnc2)c2ccccc21 ; strain or isolate: ATCC 10231 ; value: >1443 µM
COCCOC(=O)C1=C(C)NC(C)=C(C(=O)OC(C)C)C1c1cccc([N+](=O)[O-])c1 ; strain or isolate: 66 strains ; value: 486 µg/mL
N=C(N)c1ccc(/C=C/c2cc3ccc(C(=N)N)cc3[nH]2)cc1 ; value: 3 µg/mL
Cc1ccc(OCC(=O)Nc2cccc(C(=O)Nc3cc(C)on3)c2)cc1 ; strain or isolate: ATCC 10231 ; value: >100 µg/mL
CCC(C)n1ncn(-c2ccc(N3CCN(c4ccc(OC[C@H]5CO[C@](Cn6cncn6)(c6ccc(Cl)cc6Cl)O5)cc4)CC3)cc2)c1=O ; strain or isolate: ATCC64550 ; value: 1 µg/mL
CCCCCCCCCCOC[n+]1cccc(NCn2cnc3ccccc32)c1 ; strain or isolate: ATCC 10231 ; value: 290 µM
O=C(CN1CCOCC1)Nc1nc(-c2ccccc2)cc(-c2ccc(F)cc2)n1 ; value: 25 µg/mL
CC(=O)O[C@H]1CC[C@@]2(C)C(=CCC3C4CCC(C(=O)/C=C/c5ccc(Cl)cc5Cl)[C@@]4(C)CCC32)C1 ; strain or isolate: MTCC 183 ; read by: turbidity ; value: 500 µg/mL
O=C1CSC(c2c(F)cccc2F)N1c1ncc(-c2cc3ccccc3oc2=O)o1 ; strain or isolate: ATCC 10231 ; read by: broth dilution ; value: 30 µg/mL
CC(=O)O/N=C(\c1ccc(Cl)cc1)c1cc2ccccc2o1 ; value: 16 µg/mL
COc1ccc(Br)cc1/C=N/NC(=O)Cc1ccc(C)cc1 ; read by: MTT ; value: >150 µM
C[C@@H](NC(=O)c1ccc(Cl)cc1NC=O)[C@](O)(Cn1cncn1)c1ccc(F)cc1F ; strain or isolate: 76 strains ; value: 0.07 µg/mL
CCCCCCCCOCn1c[n+](CNC(=O)c2cccnc2)c2ccccc21 ; strain or isolate: ATCC 10231 ; value: 1161 µM
O=C1CSC(c2ccc([N+](=O)[O-])cc2)N1c1ncc(-c2cc3ccccc3oc2=O)o1 ; strain or isolate: ATCC 10231 ; read by: broth dilution ; value: 16 µg/mL
N#CSc1ccc2nc(NC(=O)CN3C(=O)S/C(=C/c4cccc(Oc5ccccc5)c4)C3=O)sc2c1 ; strain or isolate: MTCC 227 ; read by: broth dilution / visual reading ; value: 1000 µg/mL
O=C(O)C1=CCCC1 ; strain or isolate: ATCC10259 ; value: 500 µg/mL
Cn1c(=O)c(-c2[nH][nH]c(=O)c2C=Nc2ccncc2)c(O)c2ccccc21 ; strain or isolate: ATCC 10231 ; value: 25 µg/mL
CCO/N=C(\c1ccc(C)cc1)c1cc2ccccc2o1 ; value: 4 µg/mL
CCCCCCCCCCCCCC(=O)NC(CCCN)C(N)=O ; strain or isolate: ATCC 24433 ; read by: broth dilution ; value: >100 µg/mL
Cn1c(=O)c(-c2[nH][nH]c(=O)c2/C=N/c2ncccn2)c(O)c2ccccc21 ; strain or isolate: ATCC 10231 ; value: >100 µg/mL
C[C@H](n1cnc2cc(Cl)ccc2c1=O)[C@@](O)(Cn1cncn1)c1ccc(F)cc1F ; strain or isolate: 60 strains ; value: 10 µg/mL
C=C1C[C@@H]2C[C@@H]3CCO[C@@H](O3)c3cccc(c3)/C=C\C[C@H]3O[C@@H](/C(C)=C/C#N)[C@H](C)[C@@H](OC(=O)/C=C/C[C@@H](C1)O2)[C@H]3C ; strain or isolate: UCD-FR1 ; read by: broth dilution ; value: >64 µg/mL
CO/N=C(\c1ccccc1)c1cc2ccccc2o1 ; value: 2 µg/mL
N=C(N)c1cccc(-c2cc3ccc(C(=N)N)cc3s2)c1 ; value: >60 µg/mL
O=C(Cc1ccccc1F)N/N=C/c1cc([N+](=O)[O-])ccc1Cl ; read by: MTT ; value: 75 µM
CCCCCCCCCCCCCC(=O)NC(CCCN)C(=O)NC(CCCN)C(N)=O ; strain or isolate: ATCC 24433 ; read by: broth dilution ; value: 25 µg/mL
NC(=NC1CCCC1)c1ccc(-c2ccc(-c3ccc(C(N)=NC4CCCC4)cc3)o2)cc1 ; strain or isolate: Isolate CA2601 fluconazole-resistant ; value: 25 µg/mL
CC(=O)O[C@H]1CC[C@@]2(C)C(=CCC3C4CCC(C(=O)/C=C/c5ccc(F)cc5F)[C@@]4(C)CCC32)C1 ; strain or isolate: MTCC 183 ; read by: turbidity ; value: 350 µg/mL
CCCCCCN(CCCCCC)c1ccc(/C=C2/SC(=O)N(CC(=O)Nc3nc4ccc(SC#N)cc4s3)C2=O)cc1 ; strain or isolate: MTCC 227 ; read by: broth dilution / visual reading ; value: 250 µg/mL
Cc1ccc(/C=c2\c(=O)[nH][nH]\c2=C2/C(=O)c3ccccc3N(C)C2=O)cc1 ; strain or isolate: ATCC 10231 ; value: >100 µg/mL
COc1ccc(Br)cc1/C=N/NC(=O)Cc1ccccc1F ; read by: MTT ; value: >150 µM
O=C1NC(=O)/C(=C\c2ccccc2-c2ccco2)S1 ; strain or isolate: MTCC 227 ; read by: broth dilution / visual reading ; value: 500 µg/mL